Experimental data from patent US20240285557A1, “PHARMACEUTICAL COMPOSITION COMPRISING LIPASE INHIBITOR FOR TREATMENT OR TREATMENT OF RNA VIRAL INFECTIONS” (priority 2021, published 2024).

Tested on: porcine reproductive and respiratory syndrome virus LMY strain
Assay: Viral antigen expression (Western blot, immunofluorescence) in infected MARC-145 cells
Format: cell-based
Details: PRRSV matrix protein, 1, 10, 20 μM (FIG. 15F)

Compound | expression levels of the viral antigen in infected cells
CCN(C)C(=O)Nc1cccc(-c2ccc(N(C)C)cc2)c1 [DABPU-EM, 3-(4′-(dimethylamino)-(1,1′-biphenyl)-3-yl)-1-ethyl-1-methylurea] | inhibitory activity
CCN(CC)C(=O)Nc1cccc(-c2ccc(N(C)C)cc2)c1 [DABPU-DE] | higher inhibitory effects of DABPU-DE than DABPU-EM
